Pooled drug test results. Numbers come from NIAID ChemDB, via PubChem.

All rows: whole-cell or culture tests; agent: HIV-1; read by: syncytia; read-out: fold resistance

An empty or dashed field is not shown.

SMILES | strain | cells | changes | result
CC(C)=CCOc1cc(NC(=S)c2ccoc2C)ccc1Cl | IIIB | CEM | RT-V179D | 2
CC(C)=CCOc1cc(NC(=S)c2ccoc2C)ccc1Cl | IIIB | CEM | RT-K103N | 7.7
CC1=C(C(=O)Nc2cc(C(=O)OC(C)C)c(C)cc2F)SCCO1 | Nevirapine-resistant (RT V106A) | CEM | RT-V106A | >4.35
C=CCOC(=S)Nc1ccc(Cl)c(C(=O)OC(C)C)c1 |  | CEM | RT-V106A | 109
COCCOC(=O)c1cc(NC(=O)C2=C(C)OCCS2)ccc1Cl | TSAO-resistant (RT E138K) | CEM | RT-E138K | >16.7
CCc1c(Sc2cc(C)cc(C)c2)n(COCCO)c(=O)[nH]c1=O | IIIB | CEM | Nevirapine resistant (RT Y181C) | 83.3
CC(C)OC(=O)c1cc(NC(=S)OC(C)C)ccc1Cl | IIIB | CEM | RT-E138K | 42.8
CCCCOC(=S)Nc1ccc(Cl)c(C(=O)OC(C)C)c1 |  | CEM | RT-V106A | 100
C=C(Cl)COc1cc(NC(=S)c2ccoc2C)ccc1Cl | Pyridone-resistant (RT Y181C) | CEM | RT-Y181C | 22.8
CCOCn1c(Sc2cc(C)cc(C)c2)c(CC)c(=O)[nH]c1=O | IIIB TIBO R82913-resistant (RT K103N) | CEM | RT-K103N | 17.5
C/C=C\COc1cc(NC(=S)OC(C)C)ccc1Cl |  | CEM | RT-Y181C | 150
C/C(Cl)=C/COc1cc(NC(=S)c2ccoc2C)ccc1Cl | TIBO R82150-resistant (RT L100I) | CEM | RT-L100I | 13.3
CSC(=Nc1ccc(Cl)c(C(=O)OC(C)C)c1)OC(C)C |  | CEM | RT-L100I | >1
CCc1c(Sc2ccccc2)n(COCc2ccccc2)c(=O)[nH]c1=O | IIIB | CEM | RT-Y181I | 175
COc1ccc(NC(=S)c2ccsc2C)cc1OCC=C(Cl)Cl | TIBO R82913-resistant (RT K103N) | CEM | RT-K103N | 320
CCOC(=O)COc1cc(NC(=S)OC(C)C)ccc1Cl |  | CEM | RT-Y181C | 19.8
CC(C)c1c(Sc2ccccc2)n(COCCO)c(=S)[nH]c1=O | IIIB (TIBO 82150) (RT-L100I) | CEM | RT-L100I | 5
CCCCCOC(=S)Nc1ccc(Cl)c(C(=O)OC(C)C)c1 |  | CEM | RT-L100I | 10
C=C(Cl)COc1cc(NC(=S)c2ccsc2C)ccc1C#N | TSAO-m3T-resistant (RT E138K) | CEM | RT-E138K | 4.33
CC1=C(C(=O)Nc2cc(Cl)cc(C(=O)OC(C)C)c2)SCCO1 | TSAO-resistant (RT E138K) | CEM | RT-E138K | 1.1
Cc1occc1C(=S)Nc1ccc(Cl)c(/C=N/OC(C)(C)C)c1 | IIIB | CEM | RT-L100I | 2
C=C(Cl)COc1cc(NC(=S)c2ccoc2C)ccc1C | Pyridone-resistant (RT Y181C) | CEM | RT-Y181C | 16.3
CCCOC(=O)c1cc(NC(=O)C2=C(C)OCCS2)ccc1Cl | Nevirapine-resistant (RT V106A) | CEM | RT-V106A | 300
C/C(Cl)=C/COc1cc(NC(=O)c2ccoc2C)ccc1Cl | Pyridone-resistant (RT Y181C) | CEM | RT-Y181C | 14.4
CCC(C)OC(=O)c1cc(NC(=S)OC(C)C)ccc1Cl |  | CEM | RT-Y181C | 42.2
CCSCC1=C(C(=O)Nc2ccc(Cl)c(C(=O)OC(C)C)c2)SCCO1 | Nevirapine-resistant (RT V106A) | CEM | RT-V106A | 2.83
CO/N=C/c1cc(NC(=S)OC(C)C)ccc1Cl |  | CEM | RT-L100I | 43.4
C=C(C)[C@@H]1CC[C@]2(C(=O)NCCCCCCCC(=O)N[C@@H](CC(C)C)[C@@H](O)CC(=O)O)CC[C@]3(C)[C@H](CC[C@@H]4[C@@]5(C)CC[C@H](O)C(C)(C)[C@@H]5CC[C@]43C)[C@@H]12 | LAI | HeLa P4 + HeLa | GP41-A101S | ~1
CCCC1=C(C(=O)Nc2ccc(Cl)c(C(=O)OCC)c2)SCCO1 | PYR-resistant (RT Y181C) | CEM | RT-Y181C | >66.7
CC(C)OC(=S)Nc1ccc(Cl)c(C(=O)OC2CCCC2)c1 |  | CEM | RT-Y181C | 27.3
CCCC1=C(C(=O)Nc2ccc(Cl)c(C(=O)OC)c2)SCCO1 | PYR-resistant (RT Y181C) | CEM | RT-Y181C | >13.3
CCOC(=O)c1cc(NC(=S)OC(C)C)ccc1Cl |  | CEM | RT-Y181C | 151
CCCCCOC(=O)c1cc(NC(=O)C2=C(C)OCCS2)ccc1Cl | PYR-resistant (RT Y181C) | CEM | RT-Y181C | 1
CC(=O)OCCOC(=O)c1cc(NC(=S)OC(C)C)ccc1Cl |  | CEM | RT-L100I | ≥10
CCOCn1c(Cc2cc(C)cc(C)c2)c(CC)c(=O)[nH]c1=O | IIIB | CEM | Nevirapine resistant (RT Y181C) | 60
Cc1sccc1C(=O)Nc1ccc(Cl)c(OCC=C(Cl)Cl)c1 | TIBO R82913-resistant (RT K103N) | CEM | RT-K103N | 22.2
CC(C)OC(=S)Nc1ccc(Cl)c(C(=O)OC(C(C)C)C(C)C)c1 |  | CEM | RT-L100I | >14.3

Conditions beyond the fields shown may differ between rows. Fold resistance has wild type as its base.